# Measured values: US20040220095A1, “Pna conjugate for the treatment of diseases associated with hiv” (published 2004)
# Tested on: chronically HIV-infected cells (viral p24)
# Test: viral p24 ELISA in chronically HIV-infected cells after PNA treatment
# Details: FIG. 13, 72 and 144 h after the PNA application
substance,measurement,value
N-GTA TTC ATC CAC AAT TTT,viral p24 (ELISA) following PNA treatment,best effect
